Source: patent publication US7901932B2, “Methods and compositions for rapidly detecting and quantifying viable Legionella” (dated 2011)

System: Legionella pneumophila
Test: Chlorine disinfection of water containing viable Legionella, measured with Legionella dip-slides
Conditions: for % Disinfected: 0.17 mg/l free residual oxidant as Cl2, [(control − treatment)/control] × 100 from MFU/ml; for Legionella pneumophila (Ave MFU/ml) / Legionella pneumophila Ave (MFU/dip-slide): free residual oxidant 0.17 mg/l (ppm) as Cl2; for Legionella pneumophila (Ave MFU/ml): dip-slide absorbs 0.3 ml; for Legionella pneumophila Ave (MFU/dip-slide): total residual oxidant 0.25 mg/l

Substance: Chlorine
- % Disinfected (contact time 1 min): 33%
- Legionella pneumophila (Ave MFU/ml) (contact time 1 min): 8 MFU/ml
- Legionella pneumophila Ave (MFU/dip-slide) (contact time 1 min): 3 MFU/dip-slide
- % Disinfected (contact time 5 min): 100%
- Legionella pneumophila (Ave MFU/ml) (contact time 5 min): 0 MFU/ml
- Legionella pneumophila Ave (MFU/dip-slide) (contact time 5 min): 0 MFU/dip-slide
- % Disinfected (contact time 10 min): 100%
- Legionella pneumophila (Ave MFU/ml) (contact time 10 min): 0 MFU/ml
- Legionella pneumophila Ave (MFU/dip-slide) (contact time 10 min): 0 MFU/dip-slide
